Structures are written as SMILES.

The values below come from patent publication US10765662B2, “Mono- or di-substituted indole derivatives as dengue viral replication inhibitors” (Janssen Pharmaceuticals, Inc., priority 2015, dated 2020).

This series relates to DENV-2 16681 strain labeled with enhanced green fluorescent protein. The series can be described thus: DENV-2 antiviral assay (eGFP fluorescence read-out in Vero cells). Type of series: cell-based, Dengue virus. The note with it: SI=CC50/EC50, DENV-2 antiviral assay. As for the experimental part:
The antiviral activity of all the compounds of the invention was tested against the DENV-2 16681 strain which was labeled with enhanced green fluorescent protein (eGPF). The culture medium consists of minimal essential medium supplemented with 2% of heat-inactivated fetal calf serum, 0.04% gentamycin (50 mg/mL) and 2 mM of L-glutamine. Vero cells, obtained from ECACC, were suspended in culture medium and 25 μL was added to 384-well plates (2500 cells/well), which already contain the antiviral compounds. Typically, these plates contain a 5-fold serial dilution of 9 dilution steps of the test compound at 200 times the final concentration in 100% DMSO (200 nL). […] Finally, each plate contains wells which are assigned as virus controls (containing cells and virus in the absence of compound), cell controls (containing cells in the absence of virus and compound) and medium controls (containing medium in the absence of cells, virus and compounds). To the wells assigned as medium control, 25 μL of culture medium was added instead of Vero cells. Once the cells were added to the plates, the plates were incubated for 30 minutes at room temperature to allow the cells to distribute evenly within the wells. Next, the plates were incubated in a fully humidified incubator (37° C., 5% CO2) until the next day. Then, DENV-2 strain 16681, labeled with eGFP, was added at a multiplicity of infection (MOI) of 0.5. Therefore, 15 μL of virus suspension was added to all the wells containing test compound and to the wells assigned as virus control. In parallel, 15 μL of culture medium was added to the medium and cell controls. Next, the plates were incubated for 3 days in a fully humidified incubator (37° C., 5% CO2). At the day of the read out, the eGFP fluorescence was measured using an automated fluorescence microscope at 488 nm (blue laser). Using an in-house LIMS system, inhibition dose response curves for each compound were calculated and the half maximal effective concentration (EC50) was determined. Therefore, the percent inhibition (I) for every test concentration is calculated using the following formula: I=100*([…])/(SVC−SCC); ST, SCC and SVC are the amount of eGFP signal in the test compound, cell control and virus control wells, respectively. The EC50 represents the concentration of a compound at which the virus replication is inhibited with 50%, as measured by a 50% reduction of the eGFP fluorescent intensity compared to the virus control. The EC50 is calculated using linear interpolation (Table 1).
Consider `COc1cc(NC(C(=O)c2c[nH]c3cc(F)ccc23)c2ccc(Cl)cc2OCCO)cc(S(C)(=O)=O)c1` (single isomer, unassigned) [Compound 1B, 2-(4-chloro-2-(2-hydroxyethoxy)phenyl)-1-(6-fluoro-1H-indol-3-yl)-2-((3-methoxy-5-(methylsulfonyl)phenyl)amino)ethanone], for which the SI is reported as 2420. Next, `COc1cc(NC(C(=O)c2c[nH]c3ccc(OC(F)(F)F)cc23)c2ccc(Cl)cc2OCCO)cc(S(C)(=O)=O)c1` (racemic) [Compound 10, 2-(4-chloro-2-(2-hydroxyethoxy)phenyl)-2-((3-methoxy-5-(methylsulfonyl)phenyl)amino)-1-(5-(trifluoromethoxy)-1H-indol-3-yl)ethanone]: greater than 29600. With `COc1cc(NC(C(=O)c2c[nH]c3cc(OC)c(OC(F)(F)F)cc23)c2ccc(Cl)cc2OCCO)cc(S(C)(=O)=O)c1` (racemic) [Compound 11, 2-(4-chloro-2-(2-hydroxyethoxy)phenyl)-2-((3-methoxy-5-(methylsulfonyl)phenyl)amino)-1-(6-methoxy-5-(trifluoromethoxy)-1H-indol-3-yl)ethanone], the SI is 17200. Next, `COc1cc(NC(C(=O)c2c[nH]c3c(C)c(F)ccc23)c2ccc(Cl)cc2OCCO)cc(S(C)(=O)=O)c1` (single isomer, unassigned) [Compound 4B, 2-(4-chloro-2-(2-hydroxyethoxy)phenyl)-1-(6-fluoro-7-methyl-1H-indol-3-yl)-2-((3-methoxy-5-(methylsulfonyl)phenyl)amino)ethanone]: 509. As to `COc1cc(NC(C(=O)c2c[nH]c3ccc(OC(F)(F)F)cc23)c2ccc(Cl)cc2OCCO)cc(S(C)(=O)=O)c1` (single isomer, unassigned) [Compound 10A, 2-(4-chloro-2-(2-hydroxyethoxy)phenyl)-2-((3-methoxy-5-(methylsulfonyl)phenyl)amino)-1-(5-(trifluoromethoxy)-1H-indol-3-yl)ethanone], the SI came to 783. In the case of `COc1cc(NC(C(=O)c2c[nH]c3cc(F)c(C)cc23)c2ccc(Cl)cc2OCCO)cc(S(C)(=O)=O)c1` (single isomer, unassigned) [Compound 8B, 2-(4-chloro-2-(2-hydroxyethoxy)phenyl)-1-(6-fluoro-5-methyl-1H-indol-3-yl)-2-((3-methoxy-5-(methylsulfonyl)phenyl)amino)ethanone] it was greater than 1450; in that of `COc1cc(NC(C(=O)c2c[nH]c3cc(F)c(F)cc23)c2ccc(Cl)cc2OCCO)cc(S(C)(=O)=O)c1` (racemic) [Compound 7, 2-(4-chloro-2-(2-hydroxyethoxy)phenyl)-1-(5,6-difluoro-1H-indol-3-yl)-2-((3-methoxy-5-(methylsulfonyl)phenyl)amino)ethanone], greater than 10500. Regarding `COc1cc(NC(C(=O)c2c[nH]c3c(C)c(Cl)ccc23)c2ccc(Cl)cc2OCCO)cc(S(C)(=O)=O)c1` (racemic) [Compound 5, 2-(4-chloro-2-(2-hydroxyethoxy)phenyl)-1-(6-chloro-7-methyl-1H-indol-3-yl)-2-((3-methoxy-5-(methylsulfonyl)phenyl)amino)ethanone], the SI is recorded as greater than 35600.

Take `COc1cc(NC(C(=O)c2c[nH]c3c(C)cc(OC(F)(F)F)cc23)c2ccc(Cl)cc2OCCO)cc(S(C)(=O)=O)c1` (single isomer, unassigned) [Compound 12A, 2-(4-chloro-2-(2-hydroxyethoxy)phenyl)-2-((3-methoxy-5-(methylsulfonyl)phenyl)amino)-1-(7-methyl-5-(trifluoromethoxy)-1H-indol-3-yl)ethanone]: the SI is 1030.

`COc1cc(NC(C(=O)c2c[nH]c3cc(F)c(C)cc23)c2ccc(Cl)cc2OCCO)cc(S(C)(=O)=O)c1` (racemic) [Compound 8, 2-(4-chloro-2-(2-hydroxyethoxy)phenyl)-1-(6-fluoro-5-methyl-1H-indol-3-yl)-2-((3-methoxy-5-(methylsulfonyl)phenyl)amino)ethanone]: the SI was greater than 9820.

For the compound `COc1cc(NC(C(=O)c2c[nH]c3cc(OC)c(OC(F)(F)F)cc23)c2ccc(Cl)cc2OCCO)cc(S(C)(=O)=O)c1` (single isomer, unassigned) [Compound 11A, 2-(4-chloro-2-(2-hydroxyethoxy)phenyl)-2-((3-methoxy-5-(methylsulfonyl)phenyl)amino)-1-(6-methoxy-5-(trifluoromethoxy)-1H-indol-3-yl)ethanone], the SI was greater than 2220. `COc1cc(NC(C(=O)c2c[nH]c3cc(Cl)ccc23)c2ccc(Cl)cc2OCCO)cc(S(C)(=O)=O)c1` (single isomer, unassigned) [Compound 2B, 1-(6-chloro-1H-indol-3-yl)-2-(4-chloro-2-(2-hydroxyethoxy)phenyl)-2-((3-methoxy-5-(methylsulfonyl)phenyl)amino)ethanone]: the SI amounted to 2130. For `COc1cc(NC(C(=O)c2c[nH]c3ccc(C(F)(F)F)cc23)c2ccc(Cl)cc2OCCO)cc(S(C)(=O)=O)c1` (racemic) [Compound 9, 2-(4-chloro-2-(2-hydroxyethoxy)phenyl)-2-((3-methoxy-5-(methylsulfonyl)phenyl)amino)-1-(5-(trifluoromethyl)-1H-indol-3-yl)ethanone], the SI was greater than 30100. In the case of `COc1cc(NC(C(=O)c2c[nH]c3cc(F)c(F)cc23)c2ccc(Cl)cc2OCCO)cc(S(C)(=O)=O)c1` (single isomer, unassigned) [Compound 7B, 2-(4-chloro-2-(2-hydroxyethoxy)phenyl)-1-(5,6-difluoro-1H-indol-3-yl)-2-((3-methoxy-5-(methylsulfonyl)phenyl)amino)ethanone] it was 1850; in that of `COc1cc(NC(C(=O)c2c[nH]c3cc(OC)ccc23)c2ccc(Cl)cc2OCCO)cc(S(C)(=O)=O)c1` (racemic) [Compound 3, 2-(4-chloro-2-(2-hydroxyethoxy)phenyl)-1-(6-methoxy-1H-indol-3-yl)-2-((3-methoxy-5-(methylsulfonyl)phenyl)amino)ethanone], greater than 31100; in that of `COc1cc(NC(C(=O)c2c[nH]c3cc(OC)ccc23)c2ccc(Cl)cc2OCCO)cc(S(C)(=O)=O)c1` (single isomer, unassigned) [Compound 3B, 2-(4-chloro-2-(2-hydroxyethoxy)phenyl)-1-(6-methoxy-1H-indol-3-yl)-2-((3-methoxy-5-(methylsulfonyl)phenyl)amino)ethanone], 226. In the case of `COc1cc(NC(C(=O)c2c[nH]c3c(C)cc(OC(F)(F)F)cc23)c2ccc(Cl)cc2OCCO)cc(S(C)(=O)=O)c1` (racemic) [Compound 12, 2-(4-chloro-2-(2-hydroxyethoxy)phenyl)-2-((3-methoxy-5-(methylsulfonyl)phenyl)amino)-1-(7-methyl-5-(trifluoromethoxy)-1H-indol-3-yl)ethanone] it was greater than 45600. For the compound `COc1cc(NC(C(=O)c2c[nH]c3ccc(C(F)(F)F)cc23)c2ccc(Cl)cc2OCCO)cc(S(C)(=O)=O)c1` (single isomer, unassigned) [Compound 9A, 2-(4-chloro-2-(2-hydroxyethoxy)phenyl)-2-((3-methoxy-5-(methylsulfonyl)phenyl)amino)-1-(5-(trifluoromethyl)-1H-indol-3-yl)ethanone], the SI worked out at 5720.

Turning to `COc1cc(NC(C(=O)c2c[nH]c3cc(OC)c(C)cc23)c2ccc(Cl)cc2OCCO)cc(S(C)(=O)=O)c1` (racemic) [Compound 6, 2-(4-chloro-2-(2-hydroxyethoxy)phenyl)-2-((3-methoxy-5-(methylsulfonyl)phenyl)amino)-1-(6-methoxy-5-methyl-1H-indol-3-yl)ethanone], the SI is reported as 12700. Take `COc1cc(NC(C(=O)c2c[nH]c3c(C)c(Cl)ccc23)c2ccc(Cl)cc2OCCO)cc(S(C)(=O)=O)c1` (single isomer, unassigned) [Compound 5A, 2-(4-chloro-2-(2-hydroxyethoxy)phenyl)-1-(6-chloro-7-methyl-1H-indol-3-yl)-2-((3-methoxy-5-(methylsulfonyl)phenyl)amino)ethanone]: the SI is 595. Regarding `COc1cc(NC(C(=O)c2c[nH]c3cc(OC)c(C)cc23)c2ccc(Cl)cc2OCCO)cc(S(C)(=O)=O)c1` (single isomer, unassigned) [Compound 6B, 2-(4-chloro-2-(2-hydroxyethoxy)phenyl)-2-((3-methoxy-5-(methylsulfonyl)phenyl)amino)-1-(6-methoxy-5-methyl-1H-indol-3-yl)ethanone], the SI is 164.
